Reference: US20020061896A1, “Imidazopyrimidine nucleoside analogues with anti-HIV activity” (priority 1999, published 2002)

What follows are compounds tested on HIV (assay: Antiviral activity using T cells). Details: CC50/IC50.
Format: cell-based
Method: HIV-1 infection assays with cell lines.
Laboratory strains of HIV-1, HIV-2, simian immunodeficiency virus, strains with know resistance to indicated drugs, or a low-passage (clinically derived) isolates are used to infect established cell lines by using a specific multiplicity of infection (MOI) of the virus for 1 hour at 37° C. prior to washing the cells and resuspension in medium containing increasing concentrations of drug (or test compound). At 4 to 6 days post-infection, drug-treated and control wells are analyzed for an HIV-1 induced cytopathic effect and/or for the presence of viral reverse transcriptase (RT) or viral p24 antigen in the culture medium (Buckheit and Swanstrom 1991; Ojwang et al. 1994, 1995a, Rando et al. 1995).

Row | SMILES | SI (HIV)
1 | O=c1n([C@H]2CO[C@H](CO)O2)cc(F)c2nc(-c3ccc(F)cc3)cn12 [Compound 55] | >2.1
2 | O=c1n([C@@H]2CO[C@H](CO)O2)ccc2nc(-c3ccc([N+](=O)[O-])cc3)cn12 [Compound 45, L2-(4-NITROPHENYL)-6-[(2S,4S)-2- HYDROXYMETHYL-1,3-DIOXOLAN-4-YL]- 5,6-DIHYDRO[1,3]DIAZOLO[1,2- C][1,3]DIAZIN-5-ONE] | 40
3 | O=c1n([C@H]2CO[C@@H](CO)O2)ccc2nc(-c3ccc(F)cc3)cn12 [Compound 44, 2-(4-FLUOROPHENYL)-6-[(2R,4R)-2- HYDROXYMETHYL-1,3-DIOXOLAN-4-YL]- 5,6-DIHYDRO[1,3]DIAZOLO[1,2- C][1,3]DIAZIN-5-ONE] | >31250
4 | O=c1n([C@H]2CC[C@@H](CO)O2)ccc2nc(-c3ccc([N+](=O)[O-])cc3)cn12 [Compound 32, 2-(4- NITROPHENYL)-6-[(2R,5S)-5- HYDROXYMETHYLOXOLAN-2-YL]-5,6- DIHYDRO[1,3]-DIAZOLO[1,2-C][1,3]DIAZIN-5-ONE] | >14
5 | O=c1n([C@H]2CC[C@@H](CO)O2)cc(F)c2nc(-c3ccc([N+](=O)[O-])cc3)cn12 [Compound 36, 8-FLUORO-2-(4-NITROPHENYL)-6- [(2R,5S)-5-HYDROXYMETHYL OXOLAN- 2-YL]-5,6-DIHYDRO[1,3]-DIAZOLO[1,2- C][1,3]DIAZIN-5-ONE] | >100
6 | O=c1n([C@@H]2CC[C@H](CO)O2)ccc2nc(-c3ccc([N+](=O)[O-])cc3)cn12 [Compound 31, 6-[(2S,5R)-5-HYDROXYMETHYL OXOLAN-2-YL]-2-(4-NITROPHENYL)-5,6- DIHYDRO[1,3]-DIAZOLO[1,2-C][1,3]DIAZIN-5-ONE] | 4.6
7 | O=c1n([C@H]2CO[C@H](CO)O2)ccc2nc(-c3ccc([N+](=O)[O-])cc3)cn12 [Compound 53] | >25
8 | O=c1n([C@@H]2CO[C@@H](CO)O2)cc(F)c2nc(-c3ccc([N+](=O)[O-])cc3)cn12 [Compound 58] | >1.6
9 | O=c1n(C2CO[C@H](CO)O2)ccc2nc(-c3ccc(F)cc3)cn12 (stereo in doubt) [Compound 43, 2-(4-FLUOROPHENYL)-6-[(2S,4S)-2- HYDROXYMETHYL-1,3-DIOXOLAN-4-YL]- 5,6-DIHYDRO[1,3]DIAZOLO[1,2- C][1,3]DIAZIN-5-ONE] | >322
10 | O=c1n([C@H]2CO[C@@H](CO)O2)ccc2nc(-c3ccc([N+](=O)[O-])cc3)cn12 [Compound 46, 2-(4-NITROPHENYL)-6-[(2R,4R)-2- HYDROXYMETHYL-1,3-DIOXOLAN-4-YL]- 5,6-DIHYDRO[1,3]DIAZOLO[1,2- C][1,3]DIAZIN-5-ONE] | >1000
11 | O=c1n([C@@H]2CC[C@H](CO)O2)cc(F)c2nc(-c3ccc(F)cc3)cn12 [Compound 33, 8-FLUORO-2-(4-FLUOROPHENYL)-6- [(5R,2S)-5-HYDROXYMETHYL OXOLAN- 2-YL]-5,6-DIHYDRO[1,3]DIAZOLO[1,2- C][1,3]DIAZIN-5-ONE] | 22.5
